“And” between values parts separate entries of the source, which are not always exact repeats. Equal entries are not always repeated.
Columns and labels:
C. albicans = experiment: Antifungal Activity Assay (broth microtiter MIC), C. albicans; type: cell-based, Candida albicans; settings: 3 replicates, MIC recorded at 48 h
Method: (§1) Compounds of the present invention were evaluated in an Antifungal Activity Assay. An exemplary procedure for the assay, which measures the susceptibility of various Candida species to antifungal compounds, follows. Compounds to be tested (including fluconazole and amphotericin B) were dissolved in DMSO to obtain a solution having a concentration of 1 mg/mL. These stock solutions were sterile filtered using a 0.22 um nylon syringe filter, then diluted in sterile water to achieve a final concentration of 128 μg/mL.
(§2) All species were grown from frozen stock by directly plating on to freshly prepared Sabouraud Dextrose agar (BD, Difco) and incubated overnight in ambient air at 35° C. for 24 h. […] The concentration of the suspension was determined using pre-determined standard curves. […]
(§3) Broth microtiter MIC challenge plates were prepared following CLSI guidelines (M27-A3, Vol. 28 No. 14). The original CLSI guidelines focused on reading Candida MICs after 48 h of incubation. As reading after only 24 h offers a clear advantage of patient care, QC limits are being established for all drugs at 24 h. That being said there are no known interpretive breakpoints for amphotericin B at 24 h and the current fluconazole interpretive breakpoints are based on a 48 h reading. The MICs for the test compounds were recorded at 48 h. […]

Amino acid sequences for entries named in this document (tags omitted).
UniProt Q00955, whole entry: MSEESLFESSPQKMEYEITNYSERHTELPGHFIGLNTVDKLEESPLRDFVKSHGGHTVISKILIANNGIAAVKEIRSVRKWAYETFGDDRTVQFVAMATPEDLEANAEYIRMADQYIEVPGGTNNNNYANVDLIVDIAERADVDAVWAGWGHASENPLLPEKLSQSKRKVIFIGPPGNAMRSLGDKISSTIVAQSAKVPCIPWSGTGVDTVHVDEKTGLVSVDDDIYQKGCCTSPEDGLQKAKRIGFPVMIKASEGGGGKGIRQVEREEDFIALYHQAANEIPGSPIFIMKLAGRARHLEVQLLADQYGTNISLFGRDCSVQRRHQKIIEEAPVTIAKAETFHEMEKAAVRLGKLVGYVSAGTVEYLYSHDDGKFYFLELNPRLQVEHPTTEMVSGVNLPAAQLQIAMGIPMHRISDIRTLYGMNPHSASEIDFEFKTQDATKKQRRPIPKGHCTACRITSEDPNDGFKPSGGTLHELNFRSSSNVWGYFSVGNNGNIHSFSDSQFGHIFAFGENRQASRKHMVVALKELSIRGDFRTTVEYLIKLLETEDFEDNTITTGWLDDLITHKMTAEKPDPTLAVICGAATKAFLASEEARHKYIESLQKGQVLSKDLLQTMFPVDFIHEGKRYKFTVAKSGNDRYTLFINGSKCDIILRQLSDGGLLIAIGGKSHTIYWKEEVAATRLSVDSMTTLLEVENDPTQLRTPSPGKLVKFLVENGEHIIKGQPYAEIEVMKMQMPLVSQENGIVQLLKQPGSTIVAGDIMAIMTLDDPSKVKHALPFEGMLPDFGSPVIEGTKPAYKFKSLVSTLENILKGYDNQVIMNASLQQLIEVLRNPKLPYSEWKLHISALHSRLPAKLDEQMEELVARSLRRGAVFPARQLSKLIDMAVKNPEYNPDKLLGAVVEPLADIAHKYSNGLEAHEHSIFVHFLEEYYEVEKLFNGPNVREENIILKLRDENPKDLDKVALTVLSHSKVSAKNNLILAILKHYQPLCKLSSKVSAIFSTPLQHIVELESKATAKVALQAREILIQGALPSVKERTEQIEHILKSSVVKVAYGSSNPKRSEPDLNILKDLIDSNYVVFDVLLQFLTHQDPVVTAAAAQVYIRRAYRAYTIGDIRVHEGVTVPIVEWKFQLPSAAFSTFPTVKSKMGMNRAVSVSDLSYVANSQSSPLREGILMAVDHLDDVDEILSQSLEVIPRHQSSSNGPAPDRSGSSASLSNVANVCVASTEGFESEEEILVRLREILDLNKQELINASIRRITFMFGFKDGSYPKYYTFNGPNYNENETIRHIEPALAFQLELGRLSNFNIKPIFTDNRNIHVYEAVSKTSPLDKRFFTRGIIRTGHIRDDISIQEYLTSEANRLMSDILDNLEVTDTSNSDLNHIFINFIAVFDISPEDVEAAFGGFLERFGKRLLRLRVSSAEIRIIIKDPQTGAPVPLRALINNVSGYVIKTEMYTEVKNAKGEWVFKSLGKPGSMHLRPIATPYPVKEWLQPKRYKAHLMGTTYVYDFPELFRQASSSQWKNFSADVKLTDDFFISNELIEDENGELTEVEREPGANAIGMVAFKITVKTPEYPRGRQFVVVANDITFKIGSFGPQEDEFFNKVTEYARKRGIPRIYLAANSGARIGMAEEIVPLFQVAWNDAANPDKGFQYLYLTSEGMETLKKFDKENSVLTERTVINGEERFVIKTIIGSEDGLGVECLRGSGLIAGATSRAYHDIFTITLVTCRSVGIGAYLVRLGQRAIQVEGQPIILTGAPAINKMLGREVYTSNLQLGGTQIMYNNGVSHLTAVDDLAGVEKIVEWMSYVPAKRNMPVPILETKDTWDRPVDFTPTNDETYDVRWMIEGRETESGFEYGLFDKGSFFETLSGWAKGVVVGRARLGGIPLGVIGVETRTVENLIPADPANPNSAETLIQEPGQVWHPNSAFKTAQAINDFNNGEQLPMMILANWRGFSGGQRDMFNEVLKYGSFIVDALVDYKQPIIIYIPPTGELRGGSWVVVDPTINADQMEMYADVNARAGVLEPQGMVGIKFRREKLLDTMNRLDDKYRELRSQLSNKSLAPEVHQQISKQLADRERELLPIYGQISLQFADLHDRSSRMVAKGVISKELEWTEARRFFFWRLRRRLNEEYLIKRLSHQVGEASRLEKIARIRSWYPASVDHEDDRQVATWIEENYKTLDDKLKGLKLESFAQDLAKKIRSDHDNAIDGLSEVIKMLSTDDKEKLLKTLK

C. krusei = experiment: Antifungal Activity Assay (broth microtiter MIC), C. krusei; type: cell-based, Candida krusei; settings: 3 replicates, MIC recorded at 48 h
Method: as §1, §2, §3

fungal (fACC2) = fungal (fACC2) (UniProt Q00955)
C. parapsilosis = experiment: Antifungal Activity Assay (broth microtiter MIC), C. parapsilosis; type: cell-based, Candida parapsilosis; settings: 3 replicates, MIC recorded at 48 h
Method: as §1, §2, §3

COc1ccc(F)cc1[C@@H](Cn1c(=O)n([C@@H](C)C(=O)N(C)C(C)C)c(=O)c2c(C)c(-n3nccn3)sc21)OCCO
MIC, C. albicans ATCC 90028 (C. albicans; Table 3a): C (MIC of 2.1-4.0 μg/mL) | MIC, C. albicans ATCC 90028 (C. albicans; Table 3b (additional results)): B (MIC of 1.01-2.0 μg/mL) | MIC, C. krusei ATCC 6258 (C. krusei; Table 3a): C (MIC of 2.1-4.0 μg/mL) | MIC, C. krusei ATCC 6258 (C. krusei; Table 3b (additional results)): B (MIC of 1.01-2.0 μg/mL) | IC50 (fungal (fACC2)): 400 to 1000 pM and 300 to 1000 pM | MIC, C. parapsilosis ATCC 22019 (C. parapsilosis; Table 3a): C (MIC of 2.1-4.0 μg/mL) | MIC, C. parapsilosis ATCC 22019 (C. parapsilosis; Table 3b (additional results)): C (MIC of 2.01-4.0 μg/mL)

Reference: patent US10800791B2, “Triazole ACC inhibitors and uses thereof” (Gilead Apollo, LLC, priority 2015, dated 2020)
